Measurements reported in PubChem BioAssay AID624099 (ICCB-Longwood, 2012).

- Purpose: 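Knock-downs relieving repression by E2 of an HPV18 LCR luciferase reporter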 (primary screen)
- Cells: human C33A cervical carcinoma cells (HPV-negative) stably expressing BPV1 E2 and an HPV18 LCR luciferase reporter
- Knock-down reagent: siRNA pool against human genes, 40 nM
- Time to read-out: 72 h
- Read-out: 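Per-well luciferase luminescence, z-scored on each plate against the plate mean and SD with control wells left out, then averaged across three replicate plates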
- Direction: mean z-score and z-score: higher = stronger reporter signal, weaker E2 silencing
- Rule for the call: 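Mean z ≥ 2 together with z ≥ 2 in two or more of the three replicates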
Shown is one part, drawn at random, of about 21,000 reagents. Over the whole deposit, 497 (2.4%) got an active call. 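Higher z means weaker E2 silencing; only reporter increases were scored, and knock-downs that hurt cell survival may mask genuine repressor factors.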 Reagent sequences are not shown.

target gene | PubChem SID | mean z-score | z-score, replicate A | z-score, replicate B | z-score, replicate C | outcome
BEST1 (GeneID 7439) | SID134323588 | 0.85 | 1 | 0.7 | 0.84 | inactive
PPP3R2 (GeneID 5535) | SID134320128 | -0.25 | -0.3 | -0.23 | -0.23 | inactive
ACP5 (GeneID 54) | SID134314344 | -1.35 | -1.34 | -1.38 | -1.34 | inactive
ERGIC2 (GeneID 51290) | SID134324757 | -0.76 | -0.41 | -1.28 | -0.6 | inactive
ANLN (GeneID 54443) | SID134312000 | -0.06 | 0.03 | 0.05 | -0.26 | inactive
CEP192 (GeneID 55125) | SID134329717 | -0.35 | 0.03 | -0.57 | -0.5 | inactive
TCEAL5 (GeneID 340543) | SID134326166 | 0.55 | 0.44 | 0.52 | 0.69 | inactive
UBTFL3 (GeneID 129870) | SID134325526 | -0.78 | -0.8 | -0.81 | -0.74 | inactive
CRNN (GeneID 49860) | SID134315073 | 1.21 | 1.54 | 1.39 | 0.7 | inactive
PNLIP (GeneID 5406) | SID134313814 | -1.14 | -1.34 | -0.83 | -1.26 | inactive
LINC02210 (GeneID 147081) | SID134320416 | -1.42 | -1.46 | -1.17 | -1.63 | inactive
LINC02210 (GeneID 147081) | SID134328790 | 0.02 | -0.12 | 0.13 | 0.07 | inactive
LINC02210 (GeneID 147081) | SID134328805 | 1.08 | 1.01 | 0.68 | 1.54 | inactive
TLCD3A (GeneID 79850) | SID134318601 | 0.91 | 1.87 | 0.66 | 0.21 | inactive
RUNX2 (GeneID 860) | SID134316927 | -0.05 | 0.1 | -0.18 | -0.09 | inactive

The list goes on; the last 3 above are carried over.
target gene | PubChem SID | mean z-score | z-score, replicate A | z-score, replicate B | z-score, replicate C | outcome
LINC02210 (GeneID 147081) | SID134328805 | 1.08 | 1.01 | 0.68 | 1.54 | inactive
TLCD3A (GeneID 79850) | SID134318601 | 0.91 | 1.87 | 0.66 | 0.21 | inactive
RUNX2 (GeneID 860) | SID134316927 | -0.05 | 0.1 | -0.18 | -0.09 | inactive
CD33 (GeneID 945) | SID134323286 | -0.68 | -0.73 | -0.59 | -0.71 | inactive
CCDC141 (GeneID 285025) | SID134329288 | -1 | -0.71 | -1.23 | -1.07 | inactive
SP8 (GeneID 221833) | SID134312284 | 2.41 | 2.16 | 2.68 | 2.4 | active
SOX21 (GeneID 11166) | SID134323497 | -1.25 | -1.1 | -1.38 | -1.28 | inactive
CAMKMT (GeneID 79823) | SID134318593 | -1.22 | -1.33 | -1.3 | -1.03 | inactive
NPEPPSP1 (GeneID 440434) | SID134325672 | -1.23 | -1.63 | -0.99 | -1.06 | inactive
ANKRD40CL (GeneID 55018) | SID134324595 | -1.07 | -0.28 | -0.88 | -2.03 | inactive
LOC389506 (retired record) (GeneID 389506) | SID134327722 | -1.01 | -1.44 | -1.01 | -0.58 | inactive
